Measured values published in paper PMC9095805, “Structural and molecular basis for foot-and-mouth disease virus neutralization by two potent protective antibodies” (Protein & Cell, 2021).

B1: single-domain antibody M170 (VHH)
VHH: QVQLQESGGGLVQAGGSLRLSCAASGRTFSSYAMGWFRQAPGSEREFVARISWSGGSTYYADSVKGRFTISRDNAKNTVYLQMNSLKPEDTAVYYCTAGFALPPSDYWGQGTQVTVSS
notes: also called NAb M170
B2: single-domain antibody M8 (VHH)
VHH: QVQLQESGGGLVQPGGSLRLSCVASGTVFSINDISINHLGWYRQAPGKERELVAAITADGTSAYEDSVKGRFIISRDDAKKMVYLQMNSLKPEDTAVYYCNGLRASNAGWEPRFGTWGQGTQVTVSS
notes: also called mAb M8; NAb M8

Key:
Experiment in all cases: ELISA
Conditions in all cases: both partners purified
[1] = molecular target: T1, foot-and-mouth disease virus type A particle (FMDV serotype A, A24/Cruzeiro/BRA/55 (A …, UniProt P03309, strain))
T1 construct: copies: + + +

[2] = molecular target: T2, foot-and-mouth disease virus type Asia 1 particle (Foot-and-mouth disease virus serotype …, UniProt A2I7M2, strain)
T2 construct: copies: + + +

[3] = molecular target: T3, foot-and-mouth disease virus type C particle (FMDV serotype C; assayed …, UniProt P15072, strain)
T3 construct: copies: + + +

Row | Binder | binding result [1] | binding result [2] | binding result [3]
1 | B1 | no binding | – | –
2 | B2 | binds | binds | binds
